PubChem BioAssay AID1259414 – Drosophila RNAi Screening Center | 2018
In all, the deposit lists about 24,000 reagents; shown is an unselected part of those that have a named target and a result. In the full data, about 1,210 (5%) are marked active. 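Inactive calls also include excluded dsRNAs with several or no targets, genes unexpressed in JW18, and well A1, regardless of score.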 Entries without a mark were called inactive. A plus sign joins genes that one reagent is predicted to hit.

Test: 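Genome-wide screen for host control of endosymbiont load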 (primary screen)
Cells: Drosophila JW18 cells infected with Wolbachia
Reagent: long dsRNA against Drosophila genes, 0.25 µg dsRNA per well of a 384-well plate
Timing: 5 days
Conditions: cells persistently infected with Wolbachia before knock-down; no added drug
Read-out: 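Automated imaging of bacterial rRNA staining divided by host cell count, reported as plate-normalised robust z-score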
Reading the numbers: Wolbachia per cell robust z: higher = more Wolbachia per host cell than the plate typical
Hit rule: 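Hit when robust z is 1.5 or more, or -1.5 or less, in at least two of three replicates; excludes dsRNAs with several or no targets, genes not expressed in JW18 and well A1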

How did the screen score PolQ (DNA polymerase theta) [DRSC17006]?
Wolbachia per cell robust z, rep 1: 1.68 (active); Wolbachia per cell robust z, rep 2: -4.6; Wolbachia per cell robust z, rep 3: -5.92

For dpr21 (defective proboscis extension response 21) [DRSC41420], what does the deposit list?
Wolbachia per cell robust z, rep 1: 1.05; Wolbachia per cell robust z, rep 2: 0.56; Wolbachia per cell robust z, rep 3: 1.11

What is on record for CG3598 [DRSC18471]?
Wolbachia per cell robust z, rep 1: -4.65; Wolbachia per cell robust z, rep 2: 0.548; Wolbachia per cell robust z, rep 3: -1.08

What did the screen give for CG3598 [DRSC26825]?
Wolbachia per cell robust z, rep 1: -0.0383; Wolbachia per cell robust z, rep 2: -0.306; Wolbachia per cell robust z, rep 3: -0.415

How did the screen score tplus3a + tplus3b [DRSC03687]?
Wolbachia per cell robust z, rep 1: -0.0506; Wolbachia per cell robust z, rep 2: -1.23; Wolbachia per cell robust z, rep 3: -1.67

For tplus3a + tplus3b [DRSC26400], what was measured?
Wolbachia per cell robust z, rep 1: 0.743; Wolbachia per cell robust z, rep 2: 1.37; Wolbachia per cell robust z, rep 3: 0.442

With CG31098 [DRSC14259], how do the results read?
Wolbachia per cell robust z, rep 1: 0.109 (active); Wolbachia per cell robust z, rep 2: -2.1; Wolbachia per cell robust z, rep 3: -4.12

What did the screen give for CG14234 [DRSC19317]?
Wolbachia per cell robust z, rep 1: -2.22; Wolbachia per cell robust z, rep 2: -0.315; Wolbachia per cell robust z, rep 3: -0.839

For CG14234 [DRSC19589], what was measured?
Wolbachia per cell robust z, rep 1: 0.0808; Wolbachia per cell robust z, rep 2: 0.379; Wolbachia per cell robust z, rep 3: 0.674

How did the screen score l(2)37Cd (lethal (2) 37Cd) [DRSC02069]?
Wolbachia per cell robust z, rep 1: 1.15; Wolbachia per cell robust z, rep 2: 0.753; Wolbachia per cell robust z, rep 3: 0.287

What is on record for Neb-cGP [DRSC17991]?
Wolbachia per cell robust z, rep 1: -0.257; Wolbachia per cell robust z, rep 2: 0.303; Wolbachia per cell robust z, rep 3: -0.185

With Proc (Proctolin) [DRSC22998], what does the deposit list?
Wolbachia per cell robust z, rep 1: -0.261; Wolbachia per cell robust z, rep 2: -0.318; Wolbachia per cell robust z, rep 3: -4.69

How did the screen score Pebp1 (Phosphatidylethanolamine-binding protein 1) [DRSC15354]?
Wolbachia per cell robust z, rep 1: -1.56; Wolbachia per cell robust z, rep 2: -5.53; Wolbachia per cell robust z, rep 3: -1.23

For alpha-Est10 (alpha-Esterase-10) [DRSC12613], what was measured?
Wolbachia per cell robust z, rep 1: 0.334; Wolbachia per cell robust z, rep 2: 0.749; Wolbachia per cell robust z, rep 3: 0.922

With alpha-Est10 (alpha-Esterase-10) [DRSC25456], how do the results read?
Wolbachia per cell robust z, rep 1: -0.624; Wolbachia per cell robust z, rep 2: -0.283; Wolbachia per cell robust z, rep 3: 0.0577

With Ugt301D1 (UDP-glycosyltransferase family 301 member D1) [DRSC02021], what does the deposit list?
Wolbachia per cell robust z, rep 1: -0.318; Wolbachia per cell robust z, rep 2: -0.0093; Wolbachia per cell robust z, rep 3: -0.258

With CG34043 [DRSC37773], what was measured?
Wolbachia per cell robust z, rep 1: 1.64; Wolbachia per cell robust z, rep 2: -0.54; Wolbachia per cell robust z, rep 3: 1.97

With Prosalpha6T (Proteasome alpha6 subunit, Testis-specific) [DRSC02873], what was measured?
Wolbachia per cell robust z, rep 1: 1.39; Wolbachia per cell robust z, rep 2: -1.31; Wolbachia per cell robust z, rep 3: 1.08

Hits, among the entries above:
PolQ (DNA polymerase theta) [DRSC17006] — Wolbachia per cell robust z, rep 1: 1.68 (active); Wolbachia per cell robust z, rep 2: -4.6; Wolbachia per cell robust z, rep 3: -5.92
CG31098 [DRSC14259] — Wolbachia per cell robust z, rep 1: 0.109 (active); Wolbachia per cell robust z, rep 2: -2.1; Wolbachia per cell robust z, rep 3: -4.12

Next records follow.
With CG18585 [DRSC02678], what does the deposit list?
Wolbachia per cell robust z, rep 1: -5.49; Wolbachia per cell robust z, rep 2: -0.734; Wolbachia per cell robust z, rep 3: -0.439

How did the screen score Alp2 (Alkaline phosphatase 2) [DRSC04354]?
Wolbachia per cell robust z, rep 1: -0.49; Wolbachia per cell robust z, rep 2: 0.0328; Wolbachia per cell robust z, rep 3: 0.53

What is on record for Alp2 (Alkaline phosphatase 2) [DRSC26474]?
Wolbachia per cell robust z, rep 1: -1.26; Wolbachia per cell robust z, rep 2: -0.0593; Wolbachia per cell robust z, rep 3: -0.331

With Alp2 (Alkaline phosphatase 2) [DRSC41593], how do the results read?
Wolbachia per cell robust z, rep 1: -3.06; Wolbachia per cell robust z, rep 2: -2.62; Wolbachia per cell robust z, rep 3: -3.03

With Dpm3 (Dolichyl-phosphate mannosyltransferase subunit 3) [DRSC37866], what was measured?
Wolbachia per cell robust z, rep 1: 0.309; Wolbachia per cell robust z, rep 2: -0.983; Wolbachia per cell robust z, rep 3: -1.43

What is on record for CG2247 [DRSC19844]?
Wolbachia per cell robust z, rep 1: -3.94; Wolbachia per cell robust z, rep 2: 1.03; Wolbachia per cell robust z, rep 3: 0.396

For CG31221 [DRSC14335], what was measured?
Wolbachia per cell robust z, rep 1: -2.32; Wolbachia per cell robust z, rep 2: -0.576; Wolbachia per cell robust z, rep 3: -1.41

With CG31221 [DRSC16217], how do the results read?
Wolbachia per cell robust z, rep 1: 0.0194; Wolbachia per cell robust z, rep 2: -3.22; Wolbachia per cell robust z, rep 3: 1.38

What did the screen give for CG31221 [DRSC23748]?
Wolbachia per cell robust z, rep 1: 0.0143; Wolbachia per cell robust z, rep 2: -0.346; Wolbachia per cell robust z, rep 3: 0.0919

With Nup205 (Nucleoporin 205kD) [DRSC19432], how do the results read?
Wolbachia per cell robust z, rep 1: 0.869; Wolbachia per cell robust z, rep 2: -0.0554; Wolbachia per cell robust z, rep 3: 0.577

What is on record for Adk3 (Adenosine kinase 3) [DRSC05917]?
Wolbachia per cell robust z, rep 1: -0.362; Wolbachia per cell robust z, rep 2: -1.17; Wolbachia per cell robust z, rep 3: 0.375

For Adk3 (Adenosine kinase 3) [DRSC28006], what was measured?
Wolbachia per cell robust z, rep 1: 0.49; Wolbachia per cell robust z, rep 2: -0.711; Wolbachia per cell robust z, rep 3: 0.288
